Measured values: article PMC4133253
The exact form of at least one protein or probe is not confirmed.

Columns and labels:
[1] = system: GST-6xHis-VP19C (Herpes simplex virus type 1 strain KOS); test: competition with a labelled probe; details: 50-fold excess unlabeled DNA reduces the complex; recombinant protein; residues 1-465; protein details: N-terminal GST-6xHis; label: 5'-32P
[2] = system: GST-6xHis-VP19C (Herpes simplex virus type 1 strain KOS); test: EMSA; details: 1.5 and 3 ug protein, 1.5 ng probe; recombinant protein; residues 1-465; protein details: N-terminal GST-6xHis; label: 5'-32P

CCCCCCACCACACGCGATACTGCAGGGCAGACGCTGTGGTTGCTTGGCCTGGACGGCACAGACGCG (double strand) [66mer dsDNA]
binding result [1]: binds
binding result [2]: binds
